Test results published in the supplement of paper PMC9931576.
Human monoclonal antibodies against the spike receptor-binding domain (heavy:light variable regions). IC50 against pseudoviruses bearing the spike of naturally observed variants; lower = stronger; >10 µg/ml means not reached at the top dose. No active / inactive call. The stated detection limit is 0.0005 µg/ml; values near or below 0.001 µg/ml lie at the floor of the assay.

Experiments:
Assay in all cases: pseudovirus neutralization IC50; higher = weaker neutralization
[1] = biological target: SARS-CoV-2 Omicron BA.1 spike pseudovirus
Method: (§1)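 Single-round VSV luciferase pseudovirus mixed with antibody dilutions for 1 h and put on Huh-7 cells for about a day; IC50 from the dose curve.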

[2] = biological target: SARS-CoV-2 Omicron BA.2 spike pseudovirus
Method: as §1

[3] = biological target: SARS-CoV-2 Omicron BA.2.75 spike pseudovirus
Method: as §1

[4] = biological target: SARS-CoV-2 Omicron BA.5 spike pseudovirus
Method: as §1

[5] = biological target: SARS-CoV-2 Omicron BQ.1.1 spike pseudovirus
Method: as §1

[6] = biological target: SARS-CoV-2 Omicron XBB spike pseudovirus
Method: as §1

[7] = biological target: SARS-CoV-2 early D614G spike pseudovirus
Method: as §1

B1: BD57-0333 (protein)
chain 1: QVQLVQSGAEVRKPGSSVKVSCKASGGIFSNRYGISWVRQAPGQGLEWMGGIIAAFGTTNYAQKSQGRVTISADESTSTVYMEMSSLRSEDTAVYYCASGPPTYYDSWSGYSFDYWGQGTLVTVSS
chain 2: EIVLTQSPGTLSLSPGERVTLSCRASQIVNSDFLAWYQQKPGQAPRLLMYGTSSRATGIPDRFSGSGSGTDFTLTISRLEPEDFAVYYCQQYGSSPYTFGQGTKLDIK
[1]
  pseudovirus neutralization IC50: 3.4 µg/mL
[2]
  pseudovirus neutralization IC50: 3.42 µg/mL
[3]
  pseudovirus neutralization IC50: 4.97 µg/mL
[4]
  pseudovirus neutralization IC50: 4.78 µg/mL
[5]
  pseudovirus neutralization IC50: > 10 µg/mL
[6]
  pseudovirus neutralization IC50: 3.72 µg/mL
[7]
  pseudovirus neutralization IC50: 3.45 µg/mL

B2: BD57-0348 (protein)
chain 1: QVQLVQSGAEVKKPGASVMVSCKASGNTFTNYYMHWVRQAPGQGLEWMGIINPSGGSTTYAQKFQGRVTMTGDTSTSTVYMDLSSLRSEDTAVYYCARGGIVPDARTAFDIWGQGTMVTVSS
chain 2: DIQMTQSPSTLSASVGDRVTITCRASQSISRWLAWYQQKPGKAPKLLIYKASSLESGVPSRFSGSGSGTEFTLTISSLQPDDFATYYCQHYNLYSTFGQGTKVEIK
[1]
  pseudovirus neutralization IC50: > 10 µg/mL
[2]
  pseudovirus neutralization IC50: > 10 µg/mL
[3]
  pseudovirus neutralization IC50: > 10 µg/mL
[4]
  pseudovirus neutralization IC50: > 10 µg/mL
[5]
  pseudovirus neutralization IC50: > 10 µg/mL
[6]
  pseudovirus neutralization IC50: > 10 µg/mL
[7]
  pseudovirus neutralization IC50: > 10 µg/mL

B3: BD57-0321 (protein)
chain 1: EVQLLESGGGLVQPGGSLRLSCSASGFTFRYSAINWVRQAPGKGLEWVSVISGSGDTTYYADSVKGRFTISRDNSMDTVYLEMNSLRAEDTAVYFCAKDRFAGPGGSVFEFWGQGTLVIVSA
chain 2: DIQMTQSPSSLSASVGDRVTITCQASQDITNFLNWYHQKPGKAPKLLIYDASNLETGVPSRFSGSASGTDFTLTISSLQPEDIATYYCQQYANLPYTFGQGTKLELK
[1]
  pseudovirus neutralization IC50: 3.96 µg/mL
[2]
  pseudovirus neutralization IC50: 3.81 µg/mL
[3]
  pseudovirus neutralization IC50: 2.45 µg/mL
[4]
  pseudovirus neutralization IC50: 2.91 µg/mL
[5]
  pseudovirus neutralization IC50: > 10 µg/mL
[6]
  pseudovirus neutralization IC50: > 10 µg/mL
[7]
  pseudovirus neutralization IC50: > 10 µg/mL

B4: BD57-0288 (protein)
chain 1: EVQLVESGGGLVQPGRSLRLSCAASGFTFDDYAMHWVRQAPGKGLEWVSGISWNGGTIGYADSVKGRFIISRDNAKNSLHLQMNWLRSEDSGFYYCAKDEGDYGNHHHYTMHVWGQGTSVIVSS
chain 2: QSALTQPASVSGSPGQSITISCTGTSSDVGGYNYVSWYQQHAGRAPKLMIYDVTNRPSGVSDRFSGSKSGNTASLTISGLQAEDEADYYCSSYTRSSEVVFGGGTKLTVL
[1]
  pseudovirus neutralization IC50: 0.106 µg/mL
[2]
  pseudovirus neutralization IC50: 0.096 µg/mL
[3]
  pseudovirus neutralization IC50: 0.166 µg/mL
[4]
  pseudovirus neutralization IC50: 0.446 µg/mL
[5]
  pseudovirus neutralization IC50: > 10 µg/mL
[6]
  pseudovirus neutralization IC50: 6.66 µg/mL
[7]
  pseudovirus neutralization IC50: 0.0974 µg/mL

B5: BD57-0304 (protein)
chain 1: EVQLVESGGGLEQPGRSLRLSCAASGFTFDDYAMHWVRQAPGKGLEWVSGISWNSDTVGYADSVKGRFTISRDNAKNSLYLQMNSLRADDTALYYCAKDLNYDSSGYLRNGMDVWGQGTTVTVSS
chain 2: DIQLTQSPSSLSASVGDRVTITCRASQGISSYVAWYQQKPGKAPNLLIYAASTLQGGVPSRFSGSGSGTDFTLTISSLQPEDFATYYCQQLYSYPVTFGQGTRLEIK
[1]
  pseudovirus neutralization IC50: 0.00906 µg/mL
[2]
  pseudovirus neutralization IC50: 0.00634 µg/mL
[3]
  pseudovirus neutralization IC50: 0.0163 µg/mL
[4]
  pseudovirus neutralization IC50: 0.0042 µg/mL
[5]
  pseudovirus neutralization IC50: > 10 µg/mL
[6]
  pseudovirus neutralization IC50: > 10 µg/mL
[7]
  pseudovirus neutralization IC50: 0.00272 µg/mL

B6: BD57-0328 (protein)
chain 1: QVQLVESGGGVVQPGRSLTLSCAASGFSFSSFAMHWVRQAPGKGLEWVAHISYDGSNKFYADSVKGRLTISRDNSKNTLFLQMKSLRVEDTAVYFCAKEQSQADSTAFYSPGFDYWGQGSLVTVSS
chain 2: SYVLTQPPSVSVAPGKTARITCGETNIGTKSVHWYQQKPGQAPVLVIYYDSDRPSGIPERFSGSNSGNTATLTISRVEAGDEADYYCQVWEVGPVFGTGTKVTVL
[1]
  pseudovirus neutralization IC50: 1.81 µg/mL
[2]
  pseudovirus neutralization IC50: 2.43 µg/mL
[3]
  pseudovirus neutralization IC50: 2.9 µg/mL
[4]
  pseudovirus neutralization IC50: 3.48 µg/mL
[5]
  pseudovirus neutralization IC50: > 10 µg/mL
[6]
  pseudovirus neutralization IC50: > 10 µg/mL
[7]
  pseudovirus neutralization IC50: 3.23 µg/mL

B7: BD57-0341 (protein)
chain 1: QVHLQESGPGLVKPSETLSLTCSVSGGSIRSSYWSWIRQPPGQGLEWIGIMYFSGSTNYNPSLKSRVTISGDTSKNHLSLRLTSVTAADTAVYYCVTSGPNMNTPGGVIADDAFHIWGQGTMVIVSS
chain 2: DIQMTQSPSSLSASVGDRVTITCRASQTINNYLNWYQQKPGKAPKLLIYAASSLQSGVPSRFSASGSGTDFTLSVSSLQPEDFATYFCQQSFTMPWTFGQGTTVDIK
[1]
  pseudovirus neutralization IC50: 0.0164 µg/mL
[2]
  pseudovirus neutralization IC50: 0.0233 µg/mL
[3]
  pseudovirus neutralization IC50: 0.0149 µg/mL
[4]
  pseudovirus neutralization IC50: 0.0127 µg/mL
[5]
  pseudovirus neutralization IC50: > 10 µg/mL
[6]
  pseudovirus neutralization IC50: > 10 µg/mL
[7]
  pseudovirus neutralization IC50: 0.00629 µg/mL

B8: BD57-0313 (protein)
chain 1: QVQLVQSGAEVKKPGSSVKVSCKASGGTFSSSAVSWVRQAPGQGLEWMGSIIPIYGTTNFAQKFQGRVTITADGSSVVYMELTSLKSDDTAVYYCARDPIVVDPPESSPSYYFYYMDVWGNGTTVIVSS
chain 2: EAVLTQSPGTLSLSPGERATLSCRASQTVSGNYLAWYQQKPGQAPRLLIYGASRRATGISDRFSGSGSGTDFTLSISRLKPEDFAVYYCQQYGSSYTFGPGTKLEIK
[1]
  pseudovirus neutralization IC50: 0.227 µg/mL
[2]
  pseudovirus neutralization IC50: 0.227 µg/mL
[3]
  pseudovirus neutralization IC50: 0.409 µg/mL
[4]
  pseudovirus neutralization IC50: 0.181 µg/mL
[5]
  pseudovirus neutralization IC50: > 10 µg/mL
[6]
  pseudovirus neutralization IC50: > 10 µg/mL
[7]
  pseudovirus neutralization IC50: 0.0959 µg/mL

B9: BD57-0316 (protein)
chain 1: EVQLVESGGGLVQPGRSLRLSCAASGFTFDDYAMHWVRQTPGKGLEWVSGISWDSGDVGYADSVKGRFTISRDNAKNSLYLQMNSLRAEDTALYYCARGRLGHYDSWNWFDPWGQGTLVIVSS
chain 2: DIVMTQSPDSLAVSLGERATINCKSSQSVLYSSNNKNYLAWYQQKPGQPPKLLIYWASTRQSGVPDRLSGSGSGTDFTLTISSLQAEDVALYYCQQYYTTPLTFGGGTKVEIK
[1]
  pseudovirus neutralization IC50: 4.68 µg/mL
[2]
  pseudovirus neutralization IC50: 3.34 µg/mL
[3]
  pseudovirus neutralization IC50: 2.37 µg/mL
[4]
  pseudovirus neutralization IC50: 7.09 µg/mL
[5]
  pseudovirus neutralization IC50: > 10 µg/mL
[6]
  pseudovirus neutralization IC50: 8.97 µg/mL
[7]
  pseudovirus neutralization IC50: 0.695 µg/mL

B10: BD57-0303 (protein)
chain 1: QLVQSGAEVKKPGSSVKVSCKASGGTRNSYAITWVRQVPGQGLEWMGRIIPIFNVVNYAQNFQGRVTITADTSTATVYMDTATFYMELTTLTSEDTAVYFCARDRPPFGSGRVWGQGTLVTVST
chain 2: DIQMTQSPSSLSASVGDRVTITCQAGQDIGNFLNWYQQKPGKAPKLLISEASNLETGVPSRFSGSGSGTHFNFTISSLQPEDIATYYCQQYDHFLTFGPGTKVNIK
[1]
  pseudovirus neutralization IC50: 0.0632 µg/mL
[2]
  pseudovirus neutralization IC50: 0.00141 µg/mL
[3]
  pseudovirus neutralization IC50: 0.00548 µg/mL
[4]
  pseudovirus neutralization IC50: 0.00594 µg/mL
[5]
  pseudovirus neutralization IC50: > 10 µg/mL
[6]
  pseudovirus neutralization IC50: > 10 µg/mL
[7]
  pseudovirus neutralization IC50: 0.00132 µg/mL

B11: BD57-0327 (protein)
chain 1: QVQLVESGGGVVQPGRSLRLSCAASGFTFSNFDMHWVRQAPGKGLQWVAVISSGGNNKYYEDSVKARFTLSRDNAKNTLDLQMNSLRVEDTAVYFCAKEVRISDSSFMPDGFDLWGQGTLVTVSS
chain 2: SYVLTQAPSVSVAPGKTARITCGGDSIGSKNVHWYQQKPGQAPVLVITYDNDRPSGIPERFSGSNSGNTATLTISGVEAGDEADYYCQVWDIGVVFGGGTTLTVL
[1]
  pseudovirus neutralization IC50: 7.83 µg/mL
[2]
  pseudovirus neutralization IC50: 5.66 µg/mL
[3]
  pseudovirus neutralization IC50: 3.22 µg/mL
[4]
  pseudovirus neutralization IC50: > 10 µg/mL
[5]
  pseudovirus neutralization IC50: > 10 µg/mL
[6]
  pseudovirus neutralization IC50: > 10 µg/mL
[7]
  pseudovirus neutralization IC50: > 10 µg/mL

B12: BD57-0289 (protein)
chain 1: QVQLVQSGAEVRKPGASVKVSCEASGYTFTDYFIHWVRQAPGQGLEWMGWINPNSGGTKYTQKFQGRVTMTRDTSNNTVYMELNSLRSDDTAVYFCARGELELRVYYYYLDVWGTGTTVTVSS
chain 2: SYVLTQPPSVSVAPGKTARITCGGNDIGSKSVNWYQQKPGQAPVLVIYYDSGRPSGIPERFSGSNSGNPATLTISRVEAGDEADYYCQLWDFSSDHVVFGGGTKLTVL
[1]
  pseudovirus neutralization IC50: 2.58 µg/mL
[2]
  pseudovirus neutralization IC50: 4.43 µg/mL
[3]
  pseudovirus neutralization IC50: 4.03 µg/mL
[4]
  pseudovirus neutralization IC50: > 10 µg/mL
[5]
  pseudovirus neutralization IC50: > 10 µg/mL
[6]
  pseudovirus neutralization IC50: > 10 µg/mL
[7]
  pseudovirus neutralization IC50: 5.2 µg/mL
